Reference: patent US20210196816A1, “ALGAE COMPRISING THERAPEUTIC AND/OR NUTRITIONAL AGENTS” (TomAlgae CVBA, priority 2016, published 2021)

Tested on: algae cells
Assay: Loading of freeze-dried algae with glycine, glucose or vitamin B1 by rehydration; residual levels after washing
Parameters: species or system Cyclotella meneghiniana
Conditions: for Amount of amino acids in algae preparations: mean ± SD (n = 3), ninhydrin, after washing; for fold higher amount of vitamin B1 vs algae rehydrated without vitamin B1: 28 mM vitamin B1 in distilled water vs distilled water

Row | SMILES | fold higher amount of glycine vs algae rehydrated without glycine (28 mM glycine in distilled water vs distilled water) [fold] | fold-difference in amount of glycine vs algae rehydrated without glycine (28 mM glycine in sea water vs sea water) [fold] | enrichment of algae preparations relatively to pure water (28 mM solutions, either distilled water or sea water) | Amount of amino acids in algae preparations (Distilled water + 28 mM glycine) [mg/g dry weight] | Amount of amino acids in algae preparations (Sea water + 28 mM glycine) [mg/g dry weight] | fold higher amount of vitamin B1 vs algae rehydrated without vitamin B1 [fold] | fold higher amount of vitamin B1 vs algae rehydrated without vitamin B1 (listed as Vitamin B1) [fold]
1 | NCC(=O)O [glycine] | 1.3 | 1.9 | about 2 fold | 2.69 ± 0.46 | 2.64 ± 0.18 | – | –
2 | Cc1ncc(C[n+]2csc(CCO)c2C)c(N)n1 [vitamin B1, thiamine] | – | – | – | – | – | 10.1 | 10
